For at least one entry, the source does not settle the construct or the ends of the probe. Weaker means in comparison with the reference protein, sequence or condition of that experiment. Protein sequences can lack the tags named with them.

Here are results for one sequence from article PMC12658632, “Discovery of Sesamolin as a Potential Anti-Helicobacter pylori Agent by Virtual Screening against the Essential Response Regulator HsrA with In Vitro Evaluation” (ACS Omega, 2025).

The data set concerns the target T1, HsrA (UniProt O25684).
T1 sequence (looked up, limits assumed): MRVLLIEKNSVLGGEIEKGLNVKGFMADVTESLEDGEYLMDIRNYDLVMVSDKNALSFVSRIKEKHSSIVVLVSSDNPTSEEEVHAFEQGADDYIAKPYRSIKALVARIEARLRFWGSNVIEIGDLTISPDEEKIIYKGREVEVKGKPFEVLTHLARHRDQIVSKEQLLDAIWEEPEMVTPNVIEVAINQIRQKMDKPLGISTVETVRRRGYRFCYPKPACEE
Briefly: EMSA. The following applies: weak inhibition at 0.05 mM, stronger at 0.1-1 mM, EMSA binding buffer (Beyotime GS005, composition and pH not stated), 25 uL, 4 uM HsrA, 50 ng each DNA, 25 C 30 min, 5% native PAGE, 0.5x TBE, recombinant protein, label: none (NA-Red stain), probe letters rebuilt from the primers and the genome.

In the case of “GCCAAAACGCCTAAAGCCATGATAACCTTTTTCATCGTTTGTCTCCTCTACTTATCAAAATGATCTTAAAATGATACAATTACAAGTTTAAGTTTTGCTTAAAAATGAAGTGAAAATGAGAGAAATAAATATGATTTTATACATTCATATCCCCTTTTGTGAAAATAAATGCGGTTATTGCGCTTTCAA (double strand) [hp1227 promoter probe]”, the binding result runs as follows: (coptisine (6) 0.05-1 mM) “binds more weakly”; (sesamolin (3) 0.05-1 mM) “binds more weakly”.
